Pooled drug test results. Numbers come from NIAID ChemDB, via PubChem.

All rows: tests in culture; organism: Candida tropicalis; read-out: MIC90

A number after MIC or MFC names an inhibition level or a share of isolates. Lines come from different laboratories, so protocols vary. An empty or dashed field is not shown.

{"SMILES": "C=CCc1ccc(OC)c(OC)c1", "strain or isolate": "2029", "read by": "turbidity", "result": "345 µg/mL"}
{"SMILES": "CCC(C)CC(C)CCCCCCCCC(=O)N[C@H]1C[C@@H](O)[C@H](NCCN)NC(=O)[C@@H]2[C@@H](O)CCN2C(=O)[C@H]([C@H](O)CCN)NC(=O)[C@H]([C@H](O)[C@@H](O)c2ccc(O)cc2)NC(=O)[C@@H]2C[C@@H](O)CN2C(=O)[C@H]([C@@H](C)O)NC1=O", "strain or isolate": "10 isolates", "result": "0.4 µg/mL"}
{"SMILES": "COc1cc(O)c2c(c1)C(=O)c1c(cc3c(c1O)-c1c(cc(C)c(C(=O)NC(CO)C(=O)O)c1O)[C@H](OC1OC(C)C(O)C(OC4OCC(O)C(O)C4O)C1O)C3O)C2=O", "strain or isolate": "11 isolates", "result": "8 µg/mL"}
{"SMILES": "CCC(C)CC(C)CCCCCCCCC(=O)N[C@H]1C[C@@H](O)[C@H](NCCN)NC(=O)[C@@H]2[C@@H](O)CCN2C(=O)[C@H]([C@H](O)CCN)NC(=O)[C@H]([C@H](O)[C@@H](O)c2ccc(O)cc2)NC(=O)[C@@H]2C[C@@H](O)CN2C(=O)[C@H]([C@@H](C)O)NC1=O", "strain or isolate": "20 isolates", "result": "1 µg/mL"}
{"SMILES": "O=C(c1ccccc1)C(c1ccccc1)n1nnc2ccccc21", "read by": "agar", "result": ">256 µg/mL"}
{"SMILES": "Nc1ncccc1-c1cc(Cc2ccc(COc3ccccn3)cc2)no1", "read by": "broth dilution", "result": "0.06 µg/mL"}
{"SMILES": "Clc1ccc(C(c2ccccc2)N2CCN(CCn3ccnc3)CC2)cc1", "read by": "agar", "result": ">256 µg/mL"}
{"SMILES": "CN[C@H]1CC[C@@H](c2ccc(Cl)c(Cl)c2)c2ccccc21", "strain or isolate": "MMRL2017", "read by": "broth dilution", "result": "24 µg/mL"}
{"SMILES": "Clc1ccc(C(c2ccccc2)n2cncn2)cc1", "read by": "agar", "result": "32 µg/mL"}
{"SMILES": "C[C@@H](c1ncncc1F)[C@](O)(Cn1cncn1)c1ccc(F)cc1F", "strain or isolate": "38 isolates", "result": "0.25 µg/mL"}
{"SMILES": "CCCCCOc1ccc(-c2cc(-c3ccc(C(=O)N[C@H]4C[C@@H](O)[C@@H](O)NC(=O)[C@@H]5[C@@H](O)[C@@H](C)CN5C(=O)[C@H]([C@H](O)CC(N)=O)NC(=O)[C@H]([C@H](O)[C@@H](O)c5ccc(O)c(OS(=O)(=O)O)c5)NC(=O)[C@@H]5C[C@@H](O)CN5C(=O)[C@H]([C@@H](C)O)NC4=O)cc3)no2)cc1", "read by": "broth dilution", "result": "0.016 µg/mL"}
{"SMILES": "c1ccc(C(c2ccccc2)n2nnc3ccccc32)cc1", "read by": "agar", "result": ">256 µg/mL"}
{"SMILES": "Nc1ncccc1-c1cc(Cc2ccc(COc3ccccn3)cc2)no1", "read by": "broth dilution", "result": "0.03 µg/mL"}
{"SMILES": "O=C(c1ccccc1)C(c1ccccc1)n1ccnc1", "read by": "agar", "result": ">256 µg/mL"}
{"SMILES": "CCC(C)n1ncn(-c2ccc(N3CCN(c4ccc(OC[C@H]5CO[C@](Cn6cncn6)(c6ccc(Cl)cc6Cl)O5)cc4)CC3)cc2)c1=O", "strain or isolate": "15 strains", "result": "0.25 µg/mL"}
{"SMILES": "C/C(C=NCCN=C/C(C)=C\\c1ccccc1)=C/c1ccccc1", "strain or isolate": "ATCC 750", "read by": "agar diffusion", "result": "160 µM"}
{"SMILES": "C[C@@H](c1ncncc1F)[C@](O)(Cn1cncn1)c1ccc(F)cc1F", "read by": "broth dilution", "result": "2 µg/mL"}
{"SMILES": "Clc1ccc(C(c2ccccc2)n2cnc3ccccc32)cc1", "read by": "agar", "result": "16 µg/mL"}
{"SMILES": "Clc1ccc(C(Cn2ccnc2)OCc2csc3c(Cl)cccc23)c(Cl)c1", "conditions": "24 h", "strain or isolate": "65 isolates", "read by": "visual reading", "result": "4 µg/mL"}

A second listing of 2 rows from above:

SMILES,conditions,strain or isolate,read by,result
O=C(c1ccccc1)C(c1ccccc1)n1ccnc1,-,-,agar,>256 µg/mL
C=CCc1ccc(OC)c(OC)c1,-,2029,turbidity,345 µg/mL